Source: PubChem BioAssay AID624099 (ICCB-Longwood, 2012)
Here is an unselected part of about 21,000 reagents tested. 497 of all reagents (2.4%) were called active. 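Higher z means weaker E2 silencing; only reporter increases were scored, and knock-downs that hurt cell survival may mask genuine repressor factors.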 The numbers tell different reagents against one gene apart. Reagent sequences are not shown.

- Aim: 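Host factors E2 relies on to silence an HPV18 LCR reporter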 (primary screen)
- Cell system: human C33A cervical carcinoma cells (HPV-negative) stably expressing BPV1 E2 and an HPV18 LCR luciferase reporter
- Knock-down reagent: siRNA pool against human genes, 40 nM
- Duration: 72 h
- Measured: 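HPV18 LCR reporter light per well, converted to plate-wise z-scores that exclude control wells, and averaged over triplicate plates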
- Reading the numbers: mean z-score and z-score: higher = stronger reporter signal, weaker E2 silencing
- Call rule: 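Hit if mean z-score reaches 2 and two or more of three replicate z-scores also reach 2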

gene symbol,reagent no.,mean z-score,"z-score, replicate A","z-score, replicate B","z-score, replicate C",Call
HPCAL1 (hippocalcin like 1),1,-0.16,0.04,-0.34,-0.2,inactive
LTA4H (leukotriene A4 hydrolase),1,-0.86,-0.9,-0.84,-0.82,inactive
EIF2B1 (eukaryotic translation initiation factor 2B subunit alpha),1,-1.01,-1.07,-0.94,-1.01,inactive
KLF9 (KLF transcription factor 9),1,1.52,1.44,1.33,1.8,inactive
TPO (thyroid peroxidase),1,-1.35,-1.28,-1.48,-1.28,inactive
SDC4 (syndecan 4),1,1.27,1.33,1.49,0.98,inactive
NYX (nyctalopin),1,-0.62,-0.61,-0.73,-0.52,inactive
HEATR5B (HEAT repeat containing 5B),1,1.28,1.06,1.14,1.63,inactive
ENOSF1 (enolase superfamily member 1),1,1.17,1.05,1.08,1.37,inactive
AHSG (alpha 2-HS glycoprotein),1,-0.05,0.38,-0.09,-0.44,inactive
IVD (isovaleryl-CoA dehydrogenase),1,-0.2,0.13,-0.31,-0.43,inactive
ITK (IL2 inducible T cell kinase),1,2.06,2.39,1.91,1.89,inactive
ZNF514 (zinc finger protein 514),1,-0.17,-0.23,-0.25,-0.03,inactive
LINC00640 (long independently transcribed non-coding RNA 640),1,0.29,0.7,-0.35,0.51,inactive
KIR3DX1,1,0.38,0.5,0.15,0.5,inactive
MYO1C (myosin IC),1,-0.46,-0.53,-0.58,-0.27,inactive
MZT2B (mitotic spindle organizing protein 2B),1,0.48,0.33,0.86,0.24,inactive
CD28 (CD28 molecule),1,0.1,-0.09,0.28,0.12,inactive
PRR23E (PRR23 family member E),1,0.1,0.06,-0.17,0.39,inactive
ULK1 (unc-51 like autophagy activating kinase 1),1,0.22,0.5,0,0.17,inactive
LRRC40 (leucine rich repeat containing 40),1,-0.14,0.17,-0.14,-0.46,inactive
GLRX2 (glutaredoxin 2),1,0.45,0.32,0.34,0.68,inactive
MRPS14 (mitochondrial ribosomal protein S14),1,-0.6,-0.57,-0.53,-0.68,inactive
NRIP1 (nuclear receptor interacting protein 1),1,0.44,0.55,0.41,0.36,inactive
NUFIP2 (nuclear FMR1 interacting protein 2),1,-0.28,-0.37,-0.48,0.01,inactive
THBS4 (thrombospondin 4),1,0.29,0.01,0.15,0.69,inactive
LOC340549 (retired record),1,-0.4,0.03,-0.44,-0.81,inactive
TRIM29 (tripartite motif containing 29),1,-1.4,-1.75,-1,-1.44,inactive
CRIM1 (cysteine rich transmembrane BMP regulator 1),1,0.54,0.45,0.43,0.74,inactive
RIOX2 (ribosomal oxygenase 2),1,1.36,1.04,,1.68,inactive
"PDXDC2P-NPIPB14P (PDXDC2P-NPIPB14P readthrough, transcribed pseudogene)",1,-0.05,,0.13,-0.24,inactive
ARNT2 (aryl hydrocarbon receptor nuclear translocator 2),1,0.57,0.66,0.49,0.57,inactive
CHRNB2 (cholinergic receptor nicotinic beta 2 subunit),1,-0.15,0,-0.13,-0.31,inactive
MGAM (maltase-glucoamylase),1,1.51,1.52,1.55,1.46,inactive
TBX21 (T-box transcription factor 21),1,-0.72,-0.72,-0.72,-0.72,inactive
ZNF620 (zinc finger protein 620),1,-2.01,-1.86,-2.17,-1.99,inactive
MARCHF7 (membrane associated ring-CH-type finger 7),1,-0.25,-0.5,0.12,-0.37,inactive
MAFG (MAF bZIP transcription factor G),1,-1.41,-1.07,-1.68,-1.46,inactive
MAFG (MAF bZIP transcription factor G),2,0.03,0.1,0.22,-0.23,inactive
OLFML2B (olfactomedin like 2B),1,0.53,0.32,0.77,0.49,inactive
LOC400763 (retired record),1,-0.58,-0.61,-0.44,-0.68,inactive
TPMT (thiopurine S-methyltransferase),1,0.83,0.05,0.96,1.48,inactive
LINC03010 (long independently transcribed non-coding RNA 3010),1,0.63,0.49,0.59,0.81,inactive
LINC03010 (long independently transcribed non-coding RNA 3010),2,1.1,1.04,1.26,0.99,inactive
LOC400553,1,-0.33,-0.39,0.27,-0.87,inactive
SEMA4B (semaphorin 4B),1,-0.8,-0.09,-1.28,-1.04,inactive
CRX (cone-rod homeobox),1,0.29,0.18,0.34,0.35,inactive
LOC126435 (retired record),1,0.25,0.04,0.31,0.39,inactive
SLCO4A1,1,2.29,2.19,2.38,2.31,active
UBE3A (ubiquitin protein ligase E3A),1,-0.28,-0.06,-0.15,-0.64,inactive
FAAP20 (FA core complex associated protein 20),1,-1.26,-1.32,-1.45,-1,inactive
RPL36AL (ribosomal protein L36a like),1,0.25,0.33,0.35,0.07,inactive
DMP1 (dentin matrix acidic phosphoprotein 1),1,-0.89,-0.79,-0.85,-1.04,inactive
MSL3 (MSL complex subunit 3),1,0.55,0.61,0.45,0.6,inactive
ZKSCAN1 (zinc finger with KRAB and SCAN domains 1),1,0.58,0.89,0.36,0.48,inactive
FASTK (Fas activated serine/threonine kinase),1,-0.55,0.1,-1.05,-0.69,inactive
MED22 (mediator complex subunit 22),1,-1.51,-1.35,-1.64,-1.55,inactive

Taken from above:
Result for MARCHF7 (membrane associated ring-CH-type finger 7) under “Call”: inactive
Value of ULK1 (unc-51 like autophagy activating kinase 1) under “Call”: inactive
MAFG (MAF bZIP transcription factor G) #1, z-score, replicate B = -1.68
Under “z-score, replicate C”, RIOX2 (ribosomal oxygenase 2) is entered as 1.68
Under “Call”, AHSG (alpha 2-HS glycoprotein) reads inactive
